Results of unrelated studies side by side (data: NIAID ChemDB).

Shared fields: whole-cell or culture tests; agent: Mycobacterium tuberculosis

ECn is the concentration giving n% inhibition of infection, replication or growth. a–b is a range or a potency band. Percent inhibition refers to the dose given; in toxicity tests it is the harm to the cells. MIC bound: limit read from a one-dose screen. Blank or dashed fields: not listed here. A number after MIC or MFC names an inhibition level or a share of isolates. Lines come from different laboratories, so protocols vary.

compound,endpoint,changes,dose,method,strain,result
CO[C@H]1/C=C/O[C@@]2(C)Oc3c(C)c(O)c4c(O)c(c(/C=N/N5CCN(C)CC5)c(O)c4c3C2=O)NC(=O)/C(C)=C\C=C\[C@H](C)[C@H](O)[C@@H](C)[C@@H](O)[C@@H](C)[C@H](OC(C)=O)[C@@H]1C,MIC,-,-,broth dilution,H37Rv,≤0.1 µM
CCCCn1c(-c2cc3ccccc3oc2=O)cs/c1=N\N=C\c1ccc(O)c(OCC)c1,EC50,-,-,-,H37Rv,<12.5 µg/mL
Nc1cc(S(N)(=O)=O)ccc1SSc1ccc(S(N)(=O)=O)cc1N,MIC bound,-,-,BACTEC,H37Rv,>6.25 µg/mL
N#Cc1c(N2CCN(c3ccc([N+](=O)[O-])cc3)CC2)[n+](=O)c2ccc(-c3ccc([N+](=O)[O-])cc3)cc2n1[O-],MIC,-,-,-,H37Rv,0.78 µg/mL
CCCc1cnc(C(=O)/C=C/c2ccc(Cl)cc2)cn1,MIC,-,-,absorbance,H37Rv,25 µg/mL
CC(C)[C@H]1CO[C@]23CC[C@@H](NCc4ccc(C(F)(F)F)cc4)C[C@H]2CCC(=O)N13,MIC98,-,-,resazurin,H37Rv,1–10 µM
CC/C(C)=C(/NC(=O)[C@H](C)NC(=O)[C@@H]1CCC=NN1C(=O)[C@@H](NC(=O)[C@H](C)NC(=O)C(N)(CO)CO)[C@H](C)N)C(=O)N[C@@H](CO)C(=O)O,MIC,-,-,-,H37Rv,50 µg/mL
CCCCn1c(-c2cc3cc(Br)ccc3oc2=O)cs/c1=N\N=C\c1ccc(O)c(OCC)c1,inhibition,-,12.5 µg/mL,-,H37Rv,69%
CCOC(=O)c1cc(C)nc2c1c(=O)n(-c1ccccc1)c(=O)n2CCCCN1CCN(c2ncccn2)CC1,inhibition,-,6.25 µg/mL,resazurin,H37Rv,3%
O=C(/C=C/c1ccccc1Br)c1cnccn1,MIC,-,-,absorbance,H37Rv,25 µg/mL
CO[C@H]1/C=C/O[C@@]2(C)Oc3c(C)c(O)c4c(O)c(c5c(c4c3C2=O)NC2(C[C@@H](c3ccc(F)cc3)N[C@@H](c3ccc(F)cc3)C2)N=5)=NC(=O)/C(C)=C\C=C\[C@H](C)[C@H](O)[C@@H](C)[C@H](O)[C@H](C)[C@H](OC(C)=O)[C@@H]1C,MIC,-,-,-,ATCC 35820 (streptomycin-resistant),0.02 µg/mL
O=C(O)c1ccccc1N=N/C(=N\Nc1ccccc1C(=O)O)c1ccnc2ccccc12,MIC,-,-,BACTEC,H37Rv,≥12.5 µg/mL
COc1c(Cc2ccc(Oc3ccccc3)cc2)cc2c(c1OC)CCNC2,MIC,-,-,-,-,0.13 µg/mL
C=C(C)C(=O)Nc1ccc(-n2[nH]c(C)c(N=Nc3ccc(N(C)C)cc3)c2=O)cc1,MIC,-,-,BACTEC,H37Rv,≥12.8 µg/mL
O=C(NNCc1ccccc1F)c1ccncc1,MIC,-,-,-,H37Rv (isoniazid-resistant),>32 µg/mL
O=C(/C=C/c1ccccc1Cl)c1cnccn1,MIC,-,-,absorbance,H37Rv,6.25 µg/mL
COc1ccc(NC(=S)c2ccoc2C)cc1CC(=O)OC(C)C,MIC bound,-,-,resazurin,H37Rv,>6.25 µg/mL
CC(C)Cc1cnc(C(=O)/C=C/c2ccc(Cl)cc2)cn1,MIC,-,-,absorbance,H37Rv,>25 µg/mL
O=C1OC2CCCCC2OC2CCCCC12,MIC,-,-,-,-,0.25 µg/mL
CC(C)[C@H]1CO[C@]23CCN(C(=O)CCCc4ccc(C(F)(F)F)cc4)C[C@H]2CCC(=O)N13,MIC98,-,-,resazurin,H37Rv,1–10 µM
CCOC(=O)Nc1nc(N)c2c(n1)NCCC(c1ccccc1)=N2,MIC,-,-,-,H37Rv,6.25 µg/mL
CN(C)c1nc(N)c2nc3c(nc2n1)CCCC3,MIC bound,-,-,BACTEC,H37Rv,>12.5 µg/mL
N#Cc1nc2ccccc2nc1Cl,EC50,-,-,-,H37Rv,<6.25 µg/mL
N#C[B][n+]1ccc(C(=O)NNCc2ccccc2)cc1,MIC,-,-,-,H37Rv,0.8 µg/mL
CC(C)[C@H]1CO[C@]23CCN(Cc4ccc(C(F)(F)F)cc4)C[C@H]2OCC(=O)N13,MIC98,-,-,resazurin,H37Rv,>10 µM
CC(NNC(=O)c1ccncc1)c1ccc(F)cc1,MIC,-,-,-,Thiacetazone-resistant,>50 µg/mL
CC(C)[C@H]1CO[C@]23CC[C@H](Nc4ccc(C(F)(F)F)cc4)C[C@H]2CCC(=O)N13,MIC98,-,-,resazurin,H37Rv,<1 µM
CC(NNC(=O)c1ccncc1)c1ccc(Cl)c(Cl)c1,MBC,-,-,-,H37Rv,25 µg/mL
CO[C@H]1/C=C/O[C@@]2(C)Oc3c(C)c(O)c4c(O)c(c5c(c4c3C2=O)NC2(CCNCC2)N=5)=NC(=O)/C(C)=C\C=C\[C@H](C)[C@H](O)[C@@H](C)[C@@H](O)[C@@H](C)[C@H](OC(C)=O)[C@@H]1C,MIC,-,-,-,H37Rv,0.02 µg/mL
O=C(O)Cc1cccc2c(=O)c3ccccc3oc12,MIC bound,-,-,BACTEC,H37Rv,>12.5 µg/mL
CC(C)Cc1cnc(C(=O)/C=C/c2ccc(Br)cc2)cn1,MIC,-,-,absorbance,H37Rv,>100 µg/mL
N#Cc1nc2cc(Cl)ccc2nc1Cl,EC50,-,-,-,H37Rv,<6.25 µg/mL
CC1COc2c(N3CCN(C)CC3)c(F)cc3c(=O)c(C(=O)O)cn1c23,MIC,-,-,-,H37RV (INH-R),0.63–1.25 µg/mL
COc1cc2c(cc1Cl)[n+](=O)c(C#N)c(Cl)n2[O-],inhibition,-,6.25 µg/mL,-,H37Rv,78%
NC1=C(Cl)C(=O)c2ccccc2C1=O,inhibition,-,12.5 µg/mL,BACTEC,H37Rv,100%
S=c1oc(-c2ccncc2)nn1CN1CCSCC1,MIC,-,-,-,H37Rv,40 µg/mL
CC(C)[C@H]1CO[C@]23CCN(Cc4ccc(C(F)(F)F)cc4)C[C@H]2CC(=O)N13,MIC98,-,-,resazurin,H37Rv,1–10 µM
O=C1COc2ccc(F)cc2N1,MIC bound,-,-,BACTEC,H37Rv,>12.5 µg/mL
Cc1ccccc1-c1nn(-c2ccccc2)cc1/C=C/c1nc2sccn2c(=O)c1-c1ccc(C#N)cc1,MIC,-,-,colony count,H37Rv,2.6 µg/mL
CC1CCCN(Cn2nc(-c3ccncc3)oc2=O)C1,MIC,-,-,-,H37Rv,1.25 µg/mL
CCOC(=O)C(=O)C1C(=O)N(C)C2(C)CC1c1ccccc1O2,MIC,-,-,BACTEC,H37Rv,≥12.5 µg/mL
CC(C)[C@H]1CCO[C@]23CCN(Cc4ccc(C(F)(F)F)cc4)C[C@H]2CC(=O)N13,MIC98,-,-,resazurin,H37Rv,>10 µM
N#Cc1c(Cl)n([O-])c2ccc(-c3ccc([N+](=O)[O-])cc3)cc2[n+]1=O,inhibition,-,6.25 µg/mL,-,H37Rv,94%
CC(NNC(=O)c1ccncc1)c1cccc(C(F)(F)F)c1,MBC,-,-,-,Rifampicin-resistant,12.5 µg/mL
CC(Oc1cccc([N+](=O)[O-])c1)C(=O)N/N=C1\CCOc2ccccc21,inhibition,-,12.5 µg/mL,-,H37Rv,50–64%
OCC1CCCCC1C1CCCCC1O,MIC,-,-,-,-,>1 µg/mL
CCCc1cnc(C(=O)/C=C/c2ccccc2Br)cn1,MIC,-,-,absorbance,H37Rv,12.5 µg/mL
O=c1c(Cl)c2oc3ccc([N+](=O)[O-])cc3nc-2c(Cl)c1Cl,MIC bound,-,-,BACTEC,H37Rv,>12.5 µg/mL
O=C(O)C1CCCCC1OC1CCCCC1O,MIC,-,-,-,-,0.5 µg/mL
O=c1oc2ccccc2c2c1Cc1c(oc3ccc4ccccc4c3c1=O)O2,MIC bound,-,-,BACTEC,H37Rv,>12.5 µg/mL
O=C1CC[C@@H]2CN(Cc3ccccc3)CC[C@@]23OC[C@H](C(F)(F)F)N13,MIC98,-,-,resazurin,H37Rv,>10 µM
CC(C)=CCC/C(C)=C/COc1ccc(/C=C2\C(=O)N(O)[C@@H](C)C(=O)N2O)cc1,MIC,-,-,-,H37Rv,12.5 µg/mL
NCCC(O)C(N)CC(=O)NC1CNC(=O)C(C2CCN=C(N)N2)NC(=O)/C(=C/NC(N)=O)NC(=O)C(CO)NC(=O)C(CO)NC1=O,MIC,-,-,-,H37RV (DL8280-R),12.5 µg/mL
CC12CCC(=O)C=C1CCC1C2C(O)CC2(C)C(c3csc(N)n3)CCC12.O=S(=O)(O)c1ccc(Br)cc1,inhibition,-,6.25 µg/mL,BACTEC,H37Rv,0%
O=C(NNCc1cccc(C(F)(F)F)c1)c1ccncc1,MIC,-,-,-,H37Rv (ethionamide-resistant),>31.25 µg/mL
COc1cc(OCc2ccccc2)c2c(C=O)cc(=O)oc2c1,inhibition,-,12.5 µg/mL,BACTEC,H37Rv,-6%
C/C(=N\NC(=S)N(C)C)c1ccccn1.[Cu][Br],MIC90,-,-,-,KZN494,6.25 µM
O=c1oc(-c2ccncc2)nn1CN1CCc2ccccc2C1,MIC,-,-,-,H37Rv,1.25 µg/mL
CO/C(C)=C1/NC(=O)[C@H]([C@@H](C)O)NC(=O)c2csc(n2)-c2cc(O)c(-c3nc(C(=O)NCCCN4CCOCC4)cs3)nc2-c2csc(n2)[C@@H]2COC(=O)c3c4c5c(cccc5n3O)COC(=O)[C@@H](O[C@H]3C[C@](C)(O)[C@H](N(C)C)[C@H](C)O3)[C@@H](OC4)[C@H](NC(=O)c3csc1n3)c1nc(cs1)C(=O)N2,MIC,Multidrug-resistant,-,broth dilution,Clinical isolate 565,2.5–25 µM
CCCCC1CCCCCCc2[nH]c(/C=C3\N=C(c4ccc[nH]4)C=C3OC)cc21.Cl,MIC,-,-,-,PZA-R,3.1 µg/mL
N#Cc1nc2cc(Cl)ccc2nc1N1CCN(c2ccc([N+](=O)[O-])cc2)CC1,inhibition,-,6.25 µg/mL,-,H37Rv,0%
CCN(CC)CCNc1ccc2nnn3c4ccc([N+](=O)[O-])cc4c(=O)c1c23,inhibition,-,12.5 µg/mL,BACTEC,H37Rv,100%
CO[C@H]1/C=C/O[C@@]2(C)Oc3c(C)c(O)c4c(O)c(c(/C=N/N5CCN(C)CC5)c(O)c4c3C2=O)NC(=O)/C(C)=C\C=C\[C@H](C)[C@H](O)[C@@H](C)[C@@H](O)[C@@H](C)[C@H](OC(C)=O)[C@@H]1C,MIC,-,-,-,H37Rv,3 µg/mL
CO[C@H]1/C=C/O[C@@]2(C)Oc3c(C)c(O)c4c(O)c(c5c(c4c3C2=O)NC2(C[C@@H](c3ccccc3)N[C@@H](c3ccccc3)C2)N=5)=NC(=O)/C(C)=C\C=C\[C@H](C)[C@H](O)[C@@H](C)[C@H](O)[C@H](C)[C@H](OC(C)=O)[C@@H]1C,MIC,-,-,-,ATCC 35822 (isoniazid-resistant),0.02 µg/mL
CCOC(=O)Nc1cc(NC(C)CC(C)CN(CC)CC)c2nc(-c3ccccc3)c(-c3ccccc3)nc2n1,MIC,-,-,-,H37Rv,0.15 µg/mL
O=C(/C=C/c1ccc(F)cc1)c1cnccn1,MIC,-,-,absorbance,H37Rv,25 µg/mL
NNC(=O)c1nc2ccccc2s1,MIC bound,-,-,BACTEC,H37Rv,>12.5 µg/mL
Cc1ccc(-c2nn(-c3ccccc3)cc2/C=C/c2nc3sccn3c(=O)c2-c2ccc(C#N)cc2)cc1,MIC,-,-,colony count,H37Rv,152 µg/mL
COc1ccc2nc(Cl)c(C#N)nc2c1,EC50,-,-,-,H37Rv,>6.25 µg/mL
CCOc1cc(/C=N/N=c2\scc(-c3cc4ccccc4oc3=O)n2CC)ccc1O,EC50,-,-,-,H37Rv,<12.5 µg/mL
S=c1oc(-c2ccncc2)nn1CN1CCCCCC1,MIC,-,-,-,H37Rv,40 µg/mL
CC(C)[C@H]1CS[C@]23CCN(Cc4ccccc4)C[C@H]2CCC(=O)N13,MIC98,-,-,resazurin,H37Rv,1–10 µM
COc1ccc2c(c1)n([O-])c(C#N)c(N1CCN(c3ccc([N+](=O)[O-])cc3)CC1)[n+]2=O,MIC,-,-,-,H37Rv,0.78 µg/mL
CC12C=CC(C)(C3C(=O)C4C(C(=O)C31)C1(C)C=CC4(C)S1=O)S2=O,inhibition,-,6.25 µg/mL,resazurin,H37Rv,27%
CC(=O)N1CCN(Cn2nc(-c3ccncc3)oc2=O)CC1,MIC,-,-,-,H37Rv,2.5 µg/mL
NNC(=O)c1ccccc1SSc1ccccc1C(=O)NN,MIC,-,-,-,PZA-R,>12.5 µg/mL
CCOc1cc(/C=N/N=c2\scc(-c3cc4ccccc4oc3=O)n2C2CCCCC2)ccc1O,MIC,-,-,-,H37Rv,12.5 µg/mL
Cc1cc2c(cc1C)[n+](=O)c(N1CCN(c3ccc([N+](=O)[O-])cc3)CC1)c(C#N)n2[O-],inhibition,-,6.25 µg/mL,-,H37Rv,99%